Laboratory results published in US7585861B2, “HIV inhibiting 1,2,4-triazines” (Janssen Pharmaceutica, N.V., priority 2003, dated 2009).

System: HIV
Assay: Test A: inhibition of the HIV-induced cytopathic effect in MT-4 cells (MTT)
Assay type: cell-based
Conditions: selectivity index SI = ratio of CC50 to IC50
Experimental: A rapid, sensitive and automated assay procedure was used for the in vitro evaluation of anti-HIV agents. An […] T4-cell line, MT-4, which was previously shown (Koyanagi et al., Int. J. Cancer, 36, 445-451, 1985) to be highly susceptible to and permissive for HIV infection, served as the target cell line. Inhibition of the HIV-induced cytopathic effect was used as the end point. The viability of both HIV- and mock-infected cells was assessed spectrophotometrically via the in situ reduction of 3-(4,5-dimethylthiazol-2-yl)-2,5-diphenyltetrazolium bromide (MTT). […] The percent protection achieved by the compound in HTV-infected cells was calculated by the following formula:
[formula] whereby (ODT)HIV is the optical density measured with a given concentration of the test compound in HIV-infected cells; (ODC)HIV is the optical density measured for the control unteated HIV-infected cells; (ODC)MOCK is the optical density measured for the control untreated mock-infected cells; all optical density values were determined at 540 nm. […] The ratio of CC50 to IC50 was defined as the selectivity index (SI).

Q: For `Cc1cc(C#N)cc(C)c1Nc1cnnc(Nc2ccc(C#N)cc2)n1` [Compound 1], which PSI is on record?
A: <−4.7

Q: How did the PSI turn out when `Cc1cc(CCC#N)cc(C)c1Nc1nc(Nc2ccc(C#N)cc2)nnc1C` [Compound 2] was run?
A: <−5.0

Q: `Cc1cc(C#N)cc(C)c1Oc1nc(Nc2ccc(C#N)cc2)nnc1Cl` [Compound 3] was tested. Which PSI did it give?
A: <−4.3

Q: For `Cc1cc(C#N)cc(C)c1Nc1nc(Nc2ccc(C#N)cc2)nnc1C` [Compound 5], which PSI is on record?
A: <−4.7

Q: Which PSI does the source give for `Cc1cc(C)c(Nc2cnnc(Nc3ccc(C#N)cc3)n2)c(C)c1` [Compound 7] here?
A: <−3.8

Q: How did the PSI turn out when `Cc1cc(/C=C/C#N)cc(C)c1Nc1cnnc(Nc2ccc(C#N)cc2)n1` [Compound 8] was run?
A: <−3.3

Q: How did the PSI turn out when `Cc1cc(CCC#N)cc(C)c1Nc1cnnc(Nc2ccc(C#N)cc2)n1` [Compound 9] was run?
A: <−3.8

Q: Which PSI does the source give for `N#Cc1ccc(Nc2nncc(Nc3c(Cl)cc(C#N)cc3Cl)n2)cc1` [Compound 10] here?
A: <−3.1

Q: With `COc1cc(C)c(Nc2nc(Nc3ccc(C#N)cc3)nnc2C)c(C)c1` [Compound 11] as the compound, how does the PSI read?
A: <−3.7

Q: How did the PSI turn out when `Cc1cc(C)c(Nc2nc(Nc3ccc(C#N)cc3)nnc2C)c(C)c1` [Compound 12] was run?
A: <−4.9

Q: With `Cc1cc(/C=C/C#N)cc(C)c1Nc1nc(Nc2ccc(C#N)cc2)nnc1C` [Compound 13] as the compound, how does the PSI read?
A: <−4.2

Q: How did the PSI turn out when `COc1cc(C)c(Nc2cnnc(Nc3ccc(C#N)cc3)n2)c(C)c1` [Compound 14] was run?
A: <−4.8

Q: How did the PSI turn out when `Cc1cc(Br)cc(C)c1Nc1cnnc(Nc2ccc(C#N)cc2)n1` [Compound 15] was run?
A: <−4.8

Q: For `Cc1cc(Br)cc(C)c1Nc1nc(Nc2ccc(C#N)cc2)nnc1C` [Compound 16], which PSI is on record?
A: −4.5

Q: With `Cc1cc(C(C)(C)C)cc(C)c1Nc1cnnc(Nc2ccc(C#N)cc2)n1` [Compound 17] as the compound, how does the PSI read?
A: <−4.0

Q: With `Cc1cc(C(C)(C)C)cc(C)c1Nc1nc(Nc2ccc(C#N)cc2)nnc1C` [Compound 18] as the compound, how does the PSI read?
A: <−4.1

Q: Which PSI does the source give for `Cc1cc(/C=C\C#N)cc(C)c1Nc1nc(Nc2ccc(C#N)cc2)nnc1C` [Compound 19] here?
A: −4.4

Q: `Cc1cc(CC#N)cc(C)c1Nc1nc(Nc2ccc(C#N)cc2)nnc1C` [Compound 20] was tested. Which PSI did it give?
A: <−4.0

Q: Which PSI does the source give for `Cc1cc(/C=C/C(=O)N(C)C)cc(C)c1Nc1nc(Nc2ccc(C#N)cc2)nnc1C` [Compound 22] here?
A: <−2.5

Q: How did the PSI turn out when `COc1cc(C)cc(C)c1Nc1nc(Nc2ccc(C#N)cc2)nnc1C` [Compound 23] was run?
A: −2.5

Q: For `Cc1cc(CC#N)cc(C)c1Nc1cnnc(Nc2ccc(C#N)cc2)n1` [Compound 24], which PSI is on record?
A: <−4.2

Q: How did the PSI turn out when `COc1cc(OC)c(Nc2nc(Nc3ccc(C#N)cc3)nnc2C)c(OC)c1` [Compound 25] was run?
A: −4.3

Q: With `Cc1cc(C)c(Nc2nc(Nc3ccc(C#N)cc3)nnc2C)c(CC#N)c1` [Compound 27] as the compound, how does the PSI read?
A: <−4.3

Q: For `Cc1cc(C(=O)N(C)C)cc(C)c1Nc1nc(Nc2ccc(C#N)cc2)nnc1C` [Compound 31], which PSI is on record?
A: <−3.5

Q: Which PSI does the source give for `COc1cc(/C=C/C#N)cc(OC)c1Nc1nc(Nc2ccc(C#N)cc2)nnc1C` [Compound 33] here?
A: −3.2

Q: Which PSI does the source give for `Cc1nnc(Nc2ccc(C#N)cc2)nc1Nc1c(Cl)cc(/C=C/C#N)cc1Cl` [Compound 34] here?
A: −3.6

Q: How did the PSI turn out when `CCOc1cc(C)c(Nc2nc(Nc3ccc(C#N)cc3)nnc2C)c(C)c1` [Compound 35] was run?
A: <−3.6

Q: How did the PSI turn out when `COc1cc(OC)c(Nc2cnnc(Nc3ccc(C#N)cc3)n2)c(OC)c1` [Compound 36] was run?
A: <−5.3

Q: With `CNC(=O)c1cc(C)c(Nc2cnnc(Nc3ccc(C#N)cc3)n2)c(C)c1` [Compound 37] as the compound, how does the PSI read?
A: −2.7

Q: With `Cc1cc(OCC#N)cc(C)c1Nc1nc(Nc2ccc(C#N)cc2)nnc1C` [Compound 38] as the compound, how does the PSI read?
A: −4.2

Q: For `Cc1cc(/C=C/C(=O)N2CCCC2)cc(C)c1Nc1nc(Nc2ccc(C#N)cc2)nnc1C` [Compound 39], which PSI is on record?
A: <−3.2

Q: `COc1cc(CCC#N)cc(OC)c1Nc1nc(Nc2ccc(C#N)cc2)nnc1C` [Compound 40] was tested. Which PSI did it give?
A: −3.6

Q: How did the PSI turn out when `Cc1cc(OCC#N)cc(C)c1Nc1cnnc(Nc2ccc(C#N)cc2)n1` [Compound 41] was run?
A: <−3.0

Q: Which PSI does the source give for `CC(C#N)=Cc1cc(C)c(Nc2nc(Nc3ccc(C#N)cc3)nnc2C)c(C)c1` [Compound 42] here?
A: −4.3

Q: With `CCOc1cc(C)c(Nc2cnnc(Nc3ccc(C#N)cc3)n2)c(C)c1` [Compound 43] as the compound, how does the PSI read?
A: <−3.5

Q: With `Cc1cc(C)c(Nc2nc(Nc3ccc(C#N)cc3)nnc2Cl)c(C)c1` [Compound 44] as the compound, how does the PSI read?
A: <−4.0

Q: For `Cc1cc(C)c(Nc2nnc(Cl)c(Nc3ccc(C#N)cc3)n2)c(C)c1` [Compound 45], which PSI is on record?
A: <−3.0

Q: How did the PSI turn out when `Cc1cc(C)c(Sc2nc(Nc3ccc(C#N)cc3)nnc2Cl)c(C)c1` [Compound 46] was run?
A: <−3.3

Q: Which PSI does the source give for `Cc1cc(/C=C/C(=O)N2CCOCC2)cc(C)c1Oc1nc(Nc2ccc(C#N)cc2)nnc1C` [Compound 47] here?
A: <−3.5
